Source: article PMC9100253 (International Journal of Molecular Sciences, 2022)

Tested on: O=C(Cc1cccs1)N[C@@H]1C(=O)N2C(C(=O)O)=C(/C=C/c3ccc([N+](=O)[O-])cc3[N+](=O)[O-])CS[C@H]12
Test: purified protein
Conditions: PBS pH 7.4, 10 nM enzyme, residual activity

CTX-M-15 (Escherichia coli O25b:H4; S73A)
Km: 45.6 ± 1.38 µM
Vmax: 1.86 µmol/min
kcat: 3.15 s⁻¹
kcat/Km: 70000 M⁻¹ s⁻¹
